Measured values from several laboratories, pooled; numbers as filed in NIAID ChemDB.

Shared fields: whole-cell or culture tests

ECn: concentration that inhibits the pathogen or its effect by n%. Zones are inhibition diameters on agar. Rows are shuffled and stem from different studies. A number after MIC or MFC names an inhibition level or a share of isolates. Blank or dashed fields: not listed here. Inhibition is in % at the dose shown (toxicity tests: loss of growth or viability).

smiles | species | strain or isolate | method | measure | tested at | result
O=C(O)C(Cc1ccc(I)cc1)Nc1nc(-c2ccc(Cl)c(Cl)c2)cs1 | Mycobacterium luteus |  | broth dilution | MIC99 |  | 50 µg/mL
CCC1CN(c2c(F)cc3c(=O)c(C(=O)O)cn(C4CC4)c3c2F)CCN1 | Mycobacterium avium complex | 14 strains |  | MIC90 |  | 4 µg/mL
CO[C@H]1/C=C/O[C@@]2(C)Oc3c(C)c(O)c4c(O)c(c5c(c4c3C2=O)NC2(CCN(CC(C)C)CC2)N=5)=NC(=O)/C(C)=C\C=C\[C@H](C)[C@H](O)[C@@H](C)[C@@H](O)[C@@H](C)[C@H](OC(C)=O)[C@@H]1C | Mycobacterium avium complex | 9838 |  | MBC |  | 16 µg/mL
N/N=C(\N)c1ccccn1 | Mycobacterium fortuitum |  |  | EC50 |  | >1000 µM
COc1cc(Cc2cnc(N)nc2N)cc(OC)c1OC | Mycobacterium ulcerans | Isolate 94-886 |  | MIC |  | >16 µg/mL
CN[C@@H]1[C@@H](O[C@H]2O[C@H](CO)[C@@H](N)[C@H](O)[C@H]2O)OC2C[C@@H](N)[C@@H](O[C@H]3[C@@H](O)[C@@H](O)[C@H](NC(=O)C(O)CCN)C[C@@H]3N)OC2[C@@H]1O | Mycobacterium abscessus | L948 | broth dilution | MIC |  | 2 µg/mL
O=Cc1cccc2ccccc12 | Mycobacterium fortuitum |  |  | EC50 |  | >1000 µM
C=C1[C@@H](O)[C@@H]2OC3(CCC(/C=C/[C@@H](C)[C@@H]4CC(C)=CC5(O[C@H](C[C@@](C)(O)C(=O)O)CC[C@H]5O)O4)O3)CC[C@H]2O[C@@H]1[C@@H](O)C[C@H](C)[C@H]1OC2(CCCCO2)CC[C@H]1C | Mycobacterium bovis | BCG |  | inhibition | 6 µM | 0%
CC(C)(C)[C@@H](C(=O)N[C@@H](CCCCN)C(=O)O)N1NC(=O)C[C@H](NC(=O)[C@@H](N=C(N)N)c2cc(O)c(CO)c(O)c2)C1=O | Mycobacterium szulgai | mc2155 | visual reading | MIC |  | 120 µg/mL
C[C@@H]1CN(c2cc3c(cc2F)c(=O)c(C(=O)O)cn3C(C)(C)C)C[C@H](C)N1 | Mycobacterium avium complex | 14 strains |  | MIC50 |  | 0.25 µg/mL
N/C(=N\N=C\c1ccccc1OCc1ccccc1)c1ccccn1 | Mycobacterium fortuitum |  |  | EC50 |  | >100 µM
CC(C)(C)[Si](C)(C)ONC(=O)c1ccccc1 | Mycobacterium vaccae | IMET 10670 | resazurin | MIC |  | 12.5 µM
CN[C@@H]1[C@@H](O[C@H]2O[C@H](CO)[C@@H](N)[C@H](O)[C@H]2O)OC2C[C@@H](N)[C@@H](O[C@H]3C[C@@H](O)[C@H](N)C[C@@H]3N)OC2[C@@H]1O | Mycobacterium abscessus | L948 | broth dilution | MIC |  | 1 µg/mL
Nc1ccc(S(=O)(=O)c2ccc(N)cc2)cc1 | Mycobacterium ulcerans | Isolate 5143 |  | MBC |  | 2 µg/mL
O=C(NO)c1ccc([N+](=O)[O-])cc1 | Mycobacterium vaccae | IMET 10670 | resazurin | MIC |  | 6.25 µM
COc1c(N2CCNC(C)C2)c(F)cc2c(=O)c(C(=O)O)cn(C3CC3)c12 | Mycobacterium avium complex | 14 strains |  | MIC50 |  | 0.25 µg/mL
NNC(=O)c1ccncc1 | Mycobacterium marinum | CAMP 5644 | broth dilution | MIC100 |  | 467 µM
C[C@H]1c2cccc(O)c2C(O)=C2C(=O)[C@]3(O)C(O)=C(C(N)=O)C(=O)[C@@H](N(C)C)[C@@H]3[C@@H](O)[C@@H]21 | Mycobacterium smegmatis | A28315 |  | MIC |  | 0.06 µg/mL
O=C(NOCc1ccccc1)c1cc(Br)cc(C(F)(F)F)c1 | Mycobacterium luteus | ATCC 10240 | agar diffusion / agar | zone | 2000 µM | 16 mm
CCC1CN(c2cc3c(cc2F)c(=O)c(C(=O)O)cn3CC)CCN1 | Mycobacterium avium complex | 14 strains |  | MIC50 |  | ≥32 µg/mL
CN[C@@H]1[C@@H](O[C@H]2O[C@H](CO)[C@@H](N)[C@H](O)[C@H]2O)OC2C[C@@H](N)[C@@H](O[C@H]3[C@H](F)[C@@H](O)[C@H](N)C[C@@H]3N)OC2[C@@H]1O | Mycobacterium abscessus | L948 | broth dilution | MIC |  | 1 µg/mL
C[C@H]1COC2(CCN(c3nc(=O)c4cc(C(F)(F)F)cc([N+](=O)[O-])c4s3)CC2)O1 | Mycobacterium aurum | SB66 | broth dilution / turbidity | MIC |  | >200 µg/mL
NC(=O)c1c(NC(=O)C2CC2)sc2cc(O)c(Br)cc12 | Mycobacterium marinum | Strain M | resazurin / absorbance | MIC |  | >100 µM
CC(C)(C)[Si](C)(C)ONC(=O)c1cc([N+](=O)[O-])cc(C(F)(F)F)c1 | Mycobacterium luteus | ATCC 10240 | agar diffusion / agar | zone | 2000 µM | 0 mm
COc1cc(O)cc(/C=C/c2cc3ccccc3s2)c1 | Mycobacterium chelonae |  | broth dilution | MIC |  | 32 µg/mL
CCC(C)(C)c1ccc(C=O)cc1 | Mycobacterium fortuitum |  |  | EC50 |  | >1000 µM
CN[C@@H]1[C@@H](O[C@H]2O[C@H](CO)[C@@H](N)[C@H](O)[C@H]2O)OC2C[C@@H](N)[C@@H](O[C@H]3[C@H](OCC(O)CO)[C@@H](O)[C@H](N)C[C@@H]3N)OC2[C@@H]1O | Mycobacterium abscessus | L948 | broth dilution | MIC |  | 2 µg/mL
NC[C@H]1O[C@H](O[C@H]2[C@H](O)[C@@H](O[C@H]3O[C@H](CO)[C@@H](O)[C@H](N)[C@H]3O)[C@H](N)C[C@@H]2N)[C@H](O)[C@@H](O)[C@@H]1O | Mycobacterium phlei |  |  | MIC |  | 2 µg/mL
CC(C)(C)c1ccc(/C=N/N=C(\N)c2ccccn2)cc1 | Mycobacterium fortuitum |  |  | EC50 |  | >100 µM
CN[C@@H]1[C@@H](O[C@H]2O[C@H](CO)[C@@H](N)[C@H](O)[C@H]2O)OC2C[C@@H](N)[C@@H](O[C@H]3[C@H](O)[C@@H](O)[C@H](NC(=O)C(O)CCN)C[C@@H]3N)OC2[C@@H]1O | Mycobacterium abscessus | L948 | broth dilution | MIC |  | 2 µg/mL

The last 4 rows once more:

smiles	species	strain or isolate	method	measure	tested at	result
CN[C@@H]1[C@@H](O[C@H]2O[C@H](CO)[C@@H](N)[C@H](O)[C@H]2O)OC2C[C@@H](N)[C@@H](O[C@H]3[C@H](OCC(O)CO)[C@@H](O)[C@H](N)C[C@@H]3N)OC2[C@@H]1O	Mycobacterium abscessus	L948	broth dilution	MIC		2 µg/mL
NC[C@H]1O[C@H](O[C@H]2[C@H](O)[C@@H](O[C@H]3O[C@H](CO)[C@@H](O)[C@H](N)[C@H]3O)[C@H](N)C[C@@H]2N)[C@H](O)[C@@H](O)[C@@H]1O	Mycobacterium phlei			MIC		2 µg/mL
CC(C)(C)c1ccc(/C=N/N=C(\N)c2ccccn2)cc1	Mycobacterium fortuitum			EC50		>100 µM
CN[C@@H]1[C@@H](O[C@H]2O[C@H](CO)[C@@H](N)[C@H](O)[C@H]2O)OC2C[C@@H](N)[C@@H](O[C@H]3[C@H](O)[C@@H](O)[C@H](NC(=O)C(O)CCN)C[C@@H]3N)OC2[C@@H]1O	Mycobacterium abscessus	L948	broth dilution	MIC		2 µg/mL